# PubChem BioAssay AID1259414 | Drosophila RNAi Screening Center | 2018
# Aim: 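Genome-wide screen for host control of endosymbiont load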 (primary screen)
# Cell system: Drosophila JW18 cells infected with Wolbachia
# Reagent: long dsRNA against Drosophila genes, 0.25 µg dsRNA per well of a 384-well plate
# Duration: 5 days
# Treatment: cells persistently infected with Wolbachia before knock-down; no added drug
# Read-out: 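Automated imaging of bacterial rRNA staining divided by host cell count, reported as plate-normalised robust z-score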
# Reading the numbers: Wolbachia per cell robust z: higher = more Wolbachia per host cell than the plate typical
# Hit rule: 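Hit when robust z is 1.5 or more, or -1.5 or less, in at least two of three replicates; excludes dsRNAs with several or no targets, genes not expressed in JW18 and well A1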
# In all, the deposit lists about 24,000 reagents; this is a random part of those that have a named target and a result. Of all reagents, about 1,210 (5%) got an active call. 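Inactive calls also include excluded dsRNAs with several or no targets, genes unexpressed in JW18, and well A1, regardless of score.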 A number with no mark means an inactive call. Names joined by + are all predicted targets of the reagent.
gene,amplicon,"Wolbachia per cell robust z, rep 1","Wolbachia per cell robust z, rep 2","Wolbachia per cell robust z, rep 3"
Vm26Aa (GeneID 33829),DRSC03472,0.511,0.0674,-5.58
Vm26Aa (GeneID 33829),DRSC25243,-2.48,-0.244,-0.983
alph (GeneID 43481),DRSC15398,1.74,-0.76,1.37
alph (GeneID 43481),DRSC28570,-0.286 (active),-1.58,-1.76
CG12766 (GeneID 38462),DRSC08295,0.121,0.538,-0.479
CG3251 (GeneID 33671),DRSC00586,0.564,0.229,1.77
Atx2 (GeneID 41883),DRSC23010,-0.0288,-0.0172,-4
Atx2 (GeneID 41883),DRSC40788,0.305,0.302,1.04
CG13458 (GeneID 39646),DRSC10005,-0.827,-7.78,-0.0861
CG13458 (GeneID 39646),DRSC24392,1.21,-0.201,-0.223
MICU1 (GeneID 33999),DRSC02752,0.131,-0.135,-0.444
Afti (GeneID 41744),DRSC16440,1.43,0.444,-0.134
Afti (GeneID 41744),DRSC29272,-0.479,-0.521,0.396
CG6420 (GeneID 43218),DRSC16035,-1.44,0.898,0.545
hale (GeneID 40183),DRSC10882,0.788,0.883,0.635
hale (GeneID 40183),DRSC28772,-2.83,0.517,1.2
CG3548 (GeneID 37932),DRSC04387,0.678,-0.37,-0.596
CG3548 (GeneID 37932),DRSC29938,-0.911,-1.12,-0.337
CG14839 (GeneID 41736),DRSC14963,-0.457,0.256,-2.01
CG14839 (GeneID 41736),DRSC27307,-1.07,-1.15,-0.371
beat-IIIb (GeneID 35031),DRSC02435,-0.00242,0.0754,-0.248
Gmap (GeneID 32483),DRSC19988,0.508,-6.59,-0.568
Gmap (GeneID 32483),DRSC20057,-0.161,0.215,-0.0398
Gmap (GeneID 32483),DRSC29334,0.715,-1.45,-5.08
ppk19 (GeneID 43489),DRSC15321,-5.59,-0.925,0.53
Rad9 (GeneID 40054),DRSC11263,0.0378,0.46,0.903
Ca-alpha1T (GeneID 31550),DRSC17842,-1.35,-5.75,0.202
Ca-alpha1T (GeneID 31550),DRSC18103,1.22,0.483,0.542
Ca-alpha1T (GeneID 31550),DRSC18356,-4.41,-1.02,-4.44
Ca-alpha1T (GeneID 31550),DRSC18357,-2.04,-0.495,-0.15
Ca-alpha1T (GeneID 31550),DRSC21430,-0.688,-0.327,0.6
Msp300 (GeneID 3771968),DRSC00856,0.801,-0.000275,1.34
Msp300 (GeneID 3771968),DRSC00857,-0.472 (active),-3.31,-1.72
Msp300 (GeneID 3771968),DRSC00858,-1.48,-0.889,-2.26
Msp300 (GeneID 3771968),DRSC02360,0.505,-0.457,-1.62
Msp300 (GeneID 3771968),DRSC03369,-1.34,-0.724,-0.988
Msp300 (GeneID 3771968),DRSC03370,-0.262,-0.581,-0.842
Msp300 (GeneID 3771968),DRSC40679,0.959,0.506,-0.736
Xrp1 (GeneID 42267),DRSC15283,1.15,1.51,-6.54
Xrp1 (GeneID 42267),DRSC28718,-1.01,0.491,-0.353
CG5139 (GeneID 33309),DRSC00681,-0.401,-6.2,0.807
CG5139 (GeneID 33309),DRSC26541,0.0654,-0.364,-0.112
Phae2 (GeneID 34638),DRSC02555,-0.253,0.988,-0.808
CtBP (GeneID 41602),DRSC16617,-0.328,-0.144,0.375
CtBP (GeneID 41602),DRSC23712,1.95 (active),2.18,-0.165
dpr18 (GeneID 32572),DRSC19606,0.71,0.455,0.32
CG15036 (GeneID 50396),DRSC17968,-0.396,0.353,-4.18
CG15036 (GeneID 50396),DRSC26078,0.164,0.0971,-0.459
slx1 (GeneID 40578),DRSC12290,0.95,0.674,0.864
mei-S332 (GeneID 37523),DRSC04704,-0.349,-1.19,-0.00761
GstE3 (GeneID 37108),DRSC06673,-0.282,-0.55,-0.359

A stretch of the results above, for reference:
gene,amplicon,"Wolbachia per cell robust z, rep 1","Wolbachia per cell robust z, rep 2","Wolbachia per cell robust z, rep 3"
Msp300 (GeneID 3771968),DRSC03370,-0.262,-0.581,-0.842
Msp300 (GeneID 3771968),DRSC40679,0.959,0.506,-0.736
Xrp1 (GeneID 42267),DRSC15283,1.15,1.51,-6.54
Xrp1 (GeneID 42267),DRSC28718,-1.01,0.491,-0.353
CG5139 (GeneID 33309),DRSC00681,-0.401,-6.2,0.807
CG5139 (GeneID 33309),DRSC26541,0.0654,-0.364,-0.112
Phae2 (GeneID 34638),DRSC02555,-0.253,0.988,-0.808
CtBP (GeneID 41602),DRSC16617,-0.328,-0.144,0.375
CtBP (GeneID 41602),DRSC23712,1.95 (active),2.18,-0.165
dpr18 (GeneID 32572),DRSC19606,0.71,0.455,0.32
CG15036 (GeneID 50396),DRSC17968,-0.396,0.353,-4.18
CG15036 (GeneID 50396),DRSC26078,0.164,0.0971,-0.459
slx1 (GeneID 40578),DRSC12290,0.95,0.674,0.864
mei-S332 (GeneID 37523),DRSC04704,-0.349,-1.19,-0.00761
GstE3 (GeneID 37108),DRSC06673,-0.282,-0.55,-0.359

Continued:
gene,amplicon,"Wolbachia per cell robust z, rep 1","Wolbachia per cell robust z, rep 2","Wolbachia per cell robust z, rep 3"
CG9147 (GeneID 33855),DRSC03147,0.0685,0.252,-0.434
CG9147 (GeneID 33855),DRSC27889,-0.277,-1.61,-0.447
CG10444 (GeneID 37294),DRSC05990,2.15,0.239,0.983
CG31125 (GeneID 318599),DRSC13684,-0.363,-0.0866,-0.046
CG31125 (GeneID 318599),DRSC25124,-1.36 (active),-1.66,-1.52
CG31224 (GeneID 42237),DRSC15272,-0.215,0.382,-0.101
CG31224 (GeneID 42237),DRSC16290,0.289,-0.973,0.55
CG2258 (GeneID 31729),DRSC18222,0.201,1.35,-3.42
CG2258 (GeneID 31729),DRSC28795,-1.7,-0.309,-0.296
eIF3i (GeneID 33710),DRSC03464,1.43 (active),2.88,5.16
Nup154 (GeneID 34527),DRSC03384,0.354,0.705,0.899
Nup154 (GeneID 34527),DRSC26396,1.49 (active),2.23,1.81
vito (GeneID 326214),DRSC21781,-1.47,0.825,-0.639
vito (GeneID 326214),DRSC24852,-2.85 (active),2.26,2.54
CG12546 + CG14452,DRSC11709,-0.654,-0.938,-1.07
CG9839 (GeneID 41055),DRSC16574,-2.35 (active),-7.16,-0.119
CG31221 (GeneID 42325),DRSC14335,-2.32,-0.576,-1.41
CG31221 (GeneID 42325),DRSC16217,0.0194,-3.22,1.38
CG31221 (GeneID 42325),DRSC23748,0.0143,-0.346,0.0919
Cyp4d1 (GeneID 31188),DRSC17694,-0.146,0.943,-1.08
Cyp4d1 (GeneID 31188),DRSC18456,-0.197,0.668,0.00337
Cyp4d1 (GeneID 31188),DRSC23948,0.886,0.431,0.818
LManV (GeneID 34205),DRSC03223,0.516,-0.655,0.345
LManV (GeneID 34205),DRSC24176,0.632,1.41,1.71
CG34219 (GeneID 5740281),DRSC38680,0.841,1.72,2.21
Ubc10 (GeneID 37035),DRSC07568,0.134,-4.3,-0.366
Ubc10 (GeneID 37035),DRSC23795,-0.493,2.25,1.19
Taf5 (GeneID 47900),DRSC07562,0.927,0.322,0.0245
Taf5 (GeneID 47900),DRSC29351,-0.155,-0.153,0.276
CG11927 (GeneID 33687),DRSC00337,1.07,1.15,-1.12
eff (GeneID 41785),DRSC16940,-0.696,1.36,1.03
eff (GeneID 41785),DRSC38383,0.749,0.473,-0.539
pcs (GeneID 36674),DRSC07042,0.235,-1.87,-0.00424
CG15286 (GeneID 34834),DRSC23386,1.03,1.14,2.52
CG14721 + Blm,DRSC14943,-3.91,0.427,-0.617
ODA-Dnal1 (GeneID 35962),DRSC07270,-0.473,-0.819,0.958
ODA-Dnal1 (GeneID 35962),DRSC28259,1.37,0.381,-1.07
